Pooled drug test results. Numbers come from NIAID ChemDB, via PubChem.

All rows: whole-cell or culture tests

MIC50, MIC90 and the like: level of inhibition, or share of isolates inhibited. ECn is the concentration giving n% inhibition of infection, replication or growth. Percent inhibition refers to the dose given; in toxicity tests it is the harm to the cells. Lines come from different laboratories, so protocols vary. Fold resistance has wild type as its base. Blank or dashed fields: not listed here.

SMILES	cells	endpoint	setting	strain	mutations	species	method	tested at	result
CCNCCCCNC[C@H]1CC[C@@H]1CNCCCCNCC	-	EC50	-	-	-	Encephalitozoon cuniculi	-	-	325 µM
COc1c(CN(C)C)cccc1C1OC(c2ccncc2)=NN1C(C)=Nc1ccccc1Cl	-	MIC	-	MTCC 2453	-	Pseudomonas aeruginosa	-	-	3.12 µg/mL
CCc1c(O)c(=O)ccn1CCOC	Human fibroblasts	inhibition	7 d	-	-	Pneumocystis carinii	-	18 µM	30%
O=c1[nH]c(=O)n(COCCO)cc1Br	PRK	EC50	-	-	-	Vesicular stomatitis virus	cytopathic effect	-	>400 µg/mL
CC(=O)ONc1ccc(S(=O)(=O)N(CC(C)C)C[C@@H](O)[C@H](Cc2ccccc2)NC(=O)CN2C(=O)c3ccccc3S2(=O)=O)cc1	CEM	EC50	-	-	-	SIV	MTT	-	7.2 µM
Nc1nc2c(ncn2OCC2COP(=O)(O)CO2)c(=O)[nH]1	-	MIC	-	K184	-	Maedi-visna virus	-	-	0.009 µM
CC(C)(O)c1cn(-c2cccc3ccccc23)nn1	-	inhibition	-	URM 3624	-	Candida parapsilosis	broth dilution	2048 µg/mL	0%
CCOC(=O)/C=C/[C@H](C[C@@H]1CCNC1=O)NC(=O)[C@@H](CC(=O)[C@@H](NC(=O)c1cc(C)on1)C(C)C)Cc1ccc(F)cc1	OHIO HELA-I	EC50	-	Isolate 26	-	Rhinovirus	cytopathic effect / visual reading	-	0.01 µg/mL
C=CCc1ccc(OC)c(OC)c1	-	MIC90	-	3147	-	Candida glabrata	turbidity	-	340 µg/mL
CCNC/C=C\CNC/C=C\CNCCCCNCC	-	EC50	-	-	-	Encephalitozoon cuniculi	-	-	410 µM
CCOC(=O)C(C#N)CC/C(=C/CCc1ccc2c(c1)OCO2)CC	-	MIC	-	-	-	Equine herpesvirus 4	-	-	>50 µg/mL
O=C(N[C@@H](C(=O)N1CCC[C@H]1c1ncc(-c2ccc(-c3ccc(-c4cnc([C@@H]5CCCN5C(=O)[C@H](NC(=O)C5CC5)c5ccccc5)s4)cc3)cc2)s1)c1ccccc1)C1CC1	Huh7.5	fold resistance	-	genotype 1b	V153M	Hepatitis C virus	luciferase / reporter gene	-	1
CC(=O)N[C@H]1[C@H]([C@H](O)[C@H](O)CO)OC(C(=O)O)=C[C@@H]1N=C(N)N	MDCK	EC50	-	B/Beijing/184/93	-	Influenza B virus	-	-	0.03 µM
Nc1nc(Cl)c2ncn(OCCOCP(=O)(O)O)c2n1	-	MIC	-	K184	-	Maedi-visna virus	-	-	0.009 µM
Nc1nc(=O)n2ccn([C@@H]3O[C@H](CO)C[C@H]3O)c2n1	-	EC50	-	-	-	West Nile virus	-	-	>100 µM
CCN=C1NC2C(OC(CO)C(O)C2O)S1	HEK 293	inhibition	-	-	-	Kaposi sarcoma virus	flow cytometry	0.1 µM	24%
O=C(NC(=O)c1ccccc1O)c1ccc(F)cc1	Human foreskin fibroblasts	MIC90	-	-	-	Toxoplasma gondii	-	-	>1 µM
CCCCCCCCOC(=O)[C@]1(O)C[C@@H](O)[C@@H](O)[C@H](OC(=O)/C=C/c2ccc(O)c(O)c2)C1	-	MIC50	-	UMIP 1142.76	-	Aspergillus parasiticus	absorbance	-	<500 µg/mL
C[C@@]1(O)[C@H](O)[C@@H](CO)O[C@H]1n1ccn2c(=O)nc(N)nc12	-	EC50	-	-	-	West Nile virus	-	-	>100 µM
CC=NC(=N)c1nc(-c2ccccc2)n(Cc2ccccc2)n1	VERO	EC50	-	-	-	Semliki Forest virus	cytopathic effect	-	>4 µg/mL
CCC(=O)C(CCCCCCc1cc(OC)c(O)c(OC)c1)C(=O)CC	-	MIC	-	-	-	Equine herpesvirus 4	-	-	>50 µg/mL
C[C@@H](c1ncncc1F)[C@](O)(Cn1cncn1)c1ccc(F)cc1F	-	MIC90	-	fluconazole-sensitive	-	Candida spp.	broth dilution	-	0.13 µg/mL
CC=NC(=N)c1nc(-c2ccc(C)cc2)n(Cc2ccccc2)n1	HeLa	EC50	-	TYPE B4	-	Coxsackie virus	cytopathic effect	-	>10 µg/mL
CCNC/C=C\CNCCCCNCCCCNCC	-	EC50	-	-	-	Encephalitozoon cuniculi	-	-	745 µM
CC(=O)ONc1ccc(S(=O)(=O)N(CC(C)C)C[C@@H](O)[C@H](Cc2ccccc2)NC(=O)c2ccc(-c3ccc(Cl)cc3)o2)cc1	CEM	EC50	-	-	-	SIV	MTT	-	7.6 µM
CN1CCN(C(=O)c2ccc3nc4ccccc4c(NC4CCN(Cc5ccccc5)CC4)c3c2)CC1	BHK	EC50	-	-	-	West Nile virus	replicon	-	15.5 µM
CCC[C@H](O)C[C@@H]1CC[C@H](C)CCCCC(=O)N(C)[C@@H](Cc2ccc(OCCO)cc2)C(=O)O1	-	MIC	-	ERG25	-	Saccharomyces cerevisiae	-	-	50 µg/mL
Cc1cn([C@H]2C[C@H](N=[N+]=[N-])[C@@H](CO)O2)c(=O)[nH]c1=O	-	MIC	-	K184	-	Maedi-visna virus	-	-	5.6 µM
Nc1nc(=O)n2ccn(C3O[C@H](CO)[C@@H](O)[C@H]3O)c2n1	-	EC50	-	-	-	West Nile virus	-	-	>100 µM
CC(N)C12CC3CC(CC(C3)C1)C2	MDCK	EC50	-	Influenza A H3N2 isolate 90	-	Influenza A virus	ELISA	-	14.5 µg/mL
CC(=O)N(O)CCCCCNC(=O)CCC(=O)N(O)CCCCCNC(=O)CCC(=O)N(O)CCCCCN.[Ca]	Human fibroblasts	EC50	7 d	-	-	Pneumocystis carinii	-	-	<30 µM
CCc1ccc(S(=O)(=O)NC(=O)c2ccccc2O)cc1	Human foreskin fibroblasts	MIC50	-	-	-	Toxoplasma gondii	-	-	>0.25 µM
CCC(C)CC(C)CCCCCCCCC(=O)N[C@H]1C[C@@H](O)[C@H](NCCN)NC(=O)[C@@H]2[C@@H](O)CCN2C(=O)[C@H]([C@H](O)CCN)NC(=O)[C@H]([C@H](O)[C@@H](O)c2ccc(O)cc2)NC(=O)[C@@H]2C[C@@H](O)CN2C(=O)[C@H]([C@@H](C)O)NC1=O	-	MIC	-	A 47496	-	Cryptococcus gattii	broth dilution	-	32 µg/mL
O=C(O)CCC(=O)Nc1ccc(C(=O)NC(=O)c2ccccc2O)cc1	Human foreskin fibroblasts	MIC50	-	-	-	Toxoplasma gondii	-	-	>1 µM
CCN(CC)C(=O)c1ccc2nc3ccccc3c(NCCc3c[nH]c4ccccc34)c2c1	BHK	EC50	-	-	-	West Nile virus	replicon	-	7 µM
CCc1ccc(C(=O)NC(=O)c2ccccc2)cc1	Human foreskin fibroblasts	MIC90	-	-	-	Toxoplasma gondii	-	-	>0.25 µM
Nc1nc2c(ncn2CC(CO)CCO)c(=O)[nH]1	VERO	EC50	-	-	-	Simian varicella-zoster virus	plaque count	-	35 µM
Nc1nc2c(nc(N3CCCCC3)n2COCCO)c(=O)[nH]1	PRK	EC50	-	-	-	Vesicular stomatitis virus	cytopathic effect	-	>400 µg/mL
CC1(C)N=C(N)N=C(N)N1OCCCOc1cc(Cl)c(Cl)cc1Cl	-	MIC	-	189	-	Mycobacterium avium complex	-	-	2 µg/mL
CC(=O)ONc1ccc(S(=O)(=O)N(CC(C)C)C[C@@H](O)[C@H](Cc2ccccc2)NC(=O)[C@H](C(C)C)N2C(=O)c3ccccc3C2=O)cc1	CEM	EC50	-	-	-	SIV	MTT	-	4.1 µM
CCOC(=O)c1ccc(OCCC2CCN(c3ccc(C)nn3)CC2)cc1	KB	EC50	-	33342 (ICAM-1 receptor group 17)	-	Rhinovirus	neutral red	-	0.027 µM
C/C=C/C/C=C/CCC(=O)[C@H]1O[C@H]1C(N)=O	-	MIC	-	SJ261 (emrB::Tn10 kan)	-	Escherichia coli	-	-	20 µg/mL
CCCCCCCCCCCCCCCCCCCCCCOCC(C)(COCCCCCCCCCCCCCCCCCCCCCC)CO[C@]1(C(=O)O)C[C@H](OS(=O)(=O)O)[C@@H](NC(C)=O)[C@H]([C@H](OS(=O)(=O)O)[C@@H](COS(=O)(=O)O)OS(=O)(=O)O)O1	MA-104	EC50	-	SA11 (serotype 3)	-	Simian rotavirus	plaque count	-	>100 µg/mL
CC=NC(=N)c1nc(-c2cccc(OC)c2)n(Cc2ccccc2)n1	VERO	EC50	-	-	-	Semliki Forest virus	cytopathic effect	-	>10 µg/mL
CC(=O)ONc1ccc(S(=O)(=O)N(CC(C)C)C[C@@H](O)[C@H](Cc2ccccc2)NC(=O)CCn2c(=O)oc3ccccc32)cc1	CEM	EC50	-	-	-	SIV	MTT	-	0.8 µM
Nc1ncnc2c1ncn2[C@@H]1CC[C@@H](O)[C@H]1O	CV-1	EC50	-	CC	-	Measles virus	neutral red	-	0.05 µg/mL
CN1CCN(C(=O)c2ccc3c(NCCc4c[nH]c5ccccc45)c4ccccc4nc3c2)CC1	BHK	EC50	-	-	-	West Nile virus	replicon	-	10.5 µM
Nc1ncccc1-c1cc(Cc2ccc(COc3ccccn3)cc2)no1	-	MIC90	-	fluconazole-sensitive	-	Candida spp.	broth dilution	-	0.06 µg/mL
COc1c(CN(C)C)cccc1C1OC(c2ccncc2)=NN1C(C)=Nc1ccccc1	-	MIC	-	MTCC 2453	-	Pseudomonas aeruginosa	-	-	50 µg/mL
CC(C)(O)c1cn(-c2ccc3ccccc3c2)nn1	-	inhibition	-	URM 4820	-	Candida albicans	broth dilution	2048 µg/mL	0%
CCNCCCCNC/C=C\CNCCCCNCC	-	EC50	-	-	-	Encephalitozoon cuniculi	-	-	118 µM
CCC(=O)C(CC/C(=C/CCc1ccc(OC)c(OC)c1)CC)C(=O)CC	-	MIC	-	-	-	Equine herpesvirus 4	-	-	>50 µg/mL
Nc1ncnc2c1ncn2[C@@H]1C[C@H](N)[C@@H](O)[C@H]1O	CV-1	EC50	-	TN1994	-	Measles virus	cytopathic effect	-	4 µg/mL
O=c1[nH]cnc2c1ncn2OCCOCP(=O)(O)O	-	MIC	-	K184	-	Maedi-visna virus	-	-	100 µM
Nc1nc2c(ncn2[C@H]2C[C@@H](O)[C@H](O)[C@@H]2O)c(=O)[nH]1	DAUDI	EC50	-	-	-	Epstein-Barr virus	hybridisation	-	>50 µg/mL
COc1nc(N)nc2c1ncn2OCCOCP(=O)(O)O	-	MIC	-	K184	-	Maedi-visna virus	-	-	0.003 µM
CC=NC(=N)c1nc(-c2cccc(C)c2)n(C/C=C/c2ccccc2)n1	VERO	EC50	-	-	-	Semliki Forest virus	cytopathic effect	-	>10 µg/mL
[N-]=[N+]=N[C@H]1C[C@@H](n2cnc3c(N)ncnc32)[C@H](O)[C@@H]1O	CV-1	EC50	-	-	-	Measles virus	virus yield	-	11 µg/mL
CC/C(=C\CCc1ccc2c(c1)OCO2)CCC1CCCCC1=O	-	MIC	-	-	-	Equine herpesvirus 4	-	-	>50 µg/mL
CC(=O)ONc1ccc(S(=O)(=O)N(CC(C)C)C[C@@H](O)[C@H](Cc2ccccc2)NC(=O)[C@H](CC(C)C)N2C(=O)c3ccccc3C2=O)cc1	CEM	EC50	-	-	-	SIV	MTT	-	7.2 µM
CS[C@@H]1C=C[C@H](n2cnc3c(N)ncnc32)C1	CV-1	EC50	-	-	-	Measles virus	cytopathic effect	-	>100 µg/mL
CC1CCC(C(=O)N(c2cc(C#CC(C)(C)C)sc2C(=O)O)C2CCC(O)CC2)CC1	Huh7	fold resistance	-	H77 (GT1a)	R422K	Hepatitis C virus	luciferase	-	97.8
Nc1ncnc2c1ncn2COCCO	PRK	EC50	-	-	-	Vesicular stomatitis virus	cytopathic effect	-	>400 µg/mL
C=C(N=CC)c1nc(-c2ccc(OC)cc2)n(C2O[C@H](CO)[C@@H](O)[C@H](O)[C@H]2O)n1	VERO	EC50	-	TYPE 1	-	Reovirus	cytopathic effect	-	>200 µg/mL
CC(C)(O)c1cn(-c2ccc([N+](=O)[O-])cc2)nn1	-	inhibition	-	URM 4607	-	Candida parapsilosis	broth dilution	2048 µg/mL	0%
Nc1ncnc2c1ncn2[C@@H]1C=C[C@@H](O)[C@H]1O	CV-1	EC50	-	X-1108	-	Measles virus	cytopathic effect	-	>100 µg/mL
CN1CCC(c2cc(-c3ccncc3)c(-c3ccc(F)cc3)[nH]2)CC1	-	EC50	-	RH (WILD TYPE)	-	Toxoplasma gondii	-	-	0.2 µM
CCNCCCCNCCCCNCCCCNCCCCNCC	-	EC50	-	-	-	Encephalitozoon cuniculi	-	-	42.5 µM
Cc1c(O)c(=O)ccn1C	Human fibroblasts	EC50	7 d	-	-	Pneumocystis carinii	-	-	>18 µM
N#Cc1cc([N+](=O)[O-])ccc1Oc1ccc(Cl)c(Cl)c1	VERO	inhibition	-	TYPE A21	-	Coxsackie virus	-	0.39 µg/mL	88%
Nc1ccc(S(=O)(=O)c2ccc(N)cc2)cc1	-	MIC	-	DW11	-	Mycobacterium avium complex	-	-	32 µg/mL
CC(=O)ONc1ccc(S(=O)(=O)N(CC(C)C)C[C@@H](O)[C@H](Cc2ccccc2)NC(=O)CCCc2c[nH]c3ccccc23)cc1	CEM	EC50	-	-	-	SIV	MTT	-	6.8 µM
Nc1nc2c(ncn2COC(CO)CO)c(=O)[nH]1	HFF	inhibition	-	AD169	-	Cytomegalovirus	hybridisation	10 µM	74%

The first 7 rows once more:

SMILES	cells	endpoint	setting	strain	mutations	species	method	tested at	result
CCNCCCCNC[C@H]1CC[C@@H]1CNCCCCNCC	-	EC50	-	-	-	Encephalitozoon cuniculi	-	-	325 µM
COc1c(CN(C)C)cccc1C1OC(c2ccncc2)=NN1C(C)=Nc1ccccc1Cl	-	MIC	-	MTCC 2453	-	Pseudomonas aeruginosa	-	-	3.12 µg/mL
CCc1c(O)c(=O)ccn1CCOC	Human fibroblasts	inhibition	7 d	-	-	Pneumocystis carinii	-	18 µM	30%
O=c1[nH]c(=O)n(COCCO)cc1Br	PRK	EC50	-	-	-	Vesicular stomatitis virus	cytopathic effect	-	>400 µg/mL
CC(=O)ONc1ccc(S(=O)(=O)N(CC(C)C)C[C@@H](O)[C@H](Cc2ccccc2)NC(=O)CN2C(=O)c3ccccc3S2(=O)=O)cc1	CEM	EC50	-	-	-	SIV	MTT	-	7.2 µM
Nc1nc2c(ncn2OCC2COP(=O)(O)CO2)c(=O)[nH]1	-	MIC	-	K184	-	Maedi-visna virus	-	-	0.009 µM
CC(C)(O)c1cn(-c2cccc3ccccc23)nn1	-	inhibition	-	URM 3624	-	Candida parapsilosis	broth dilution	2048 µg/mL	0%